Results of unrelated studies side by side (data: NIAID ChemDB).

All rows: tests in culture; organism: HIV-1; read-out: EC50

Blank or dashed fields: not listed here.

compound	cells	conditions	changes	strain or isolate	result
COc1ccc(CN2C[C@H](Cc3ccccc3)N(C[C@@H](O)C[C@@H](Cc3ccccc3)C(=O)N[C@H]3c4ccccc4C[C@H]3O)C2=O)cc1	MT-4 + MT4				2.2–10 µM
C/C=C/COc1cc(NC(=S)OC(C)C)ccc1Cl	CEM		RT-K101E	IIIB	0.013 µM
COc1ccc(/C=N/NC(=O)CN2c3c(-c4ccccc4)n[nH]c3-c3ccccc3S2(=O)=O)cc1OC	PBMC				46.6 µM
O=C(N[C@H]1c2ccccc2C[C@H]1O)[C@H](Cc1ccccc1)C[C@H](O)CN1C(=O)N(Cc2ccccc2)C[C@@H]1Cc1ccccc1	MT-4 + MT4				1.4 µM
COC(=O)CC(OP(=O)(OC[C@@H]1C=C[C@H](n2cc(C)c(=O)[nH]c2=O)O1)OC(CC(=O)OC)c1ccc(OC(C)=O)cc1)c1ccc(OC(C)=O)cc1	CEM				0.25 µM
O=C(CN1c2c(-c3ccccc3)n[nH]c2-c2ccccc2S1(=O)=O)N/N=C/c1cccc(Cl)c1	PBMC				2.2 µM
CC(C)CN(C[C@@H](O)[C@H](Cc1ccccc1)NC(=O)[C@@H](NC(=O)[C@@H](C)NC(C)(C)c1ccccc1)C(C)(C)C)S(=O)(=O)c1ccc2nc(N)sc2c1	MT-2			RF	<1 µM
CCCc1c(Cc2cccc3ccccc23)n(COCC)c(=O)[nH]c1=O	CEM			LAV	0.275 µM
COCc1nc(Nc2ccc(C#N)cc2)nc(Nc2c(C)cc(/C=C/C#N)cc2C)c1C(=O)NCCNC(C)=O	MT4 CMV-EGFP			K103N + Y181C	0.0263 µM
O=c1ccn([C@@H]2O[C@H](CO)[C@@H](F)[C@H]2F)c(=O)[nH]1	MT-4			IIIB	>500 µM
O=C(CN1c2c(-c3ccccc3)n[nH]c2-c2ccccc2S1(=O)=O)N/N=C/c1ccc([N+](=O)[O-])cc1	PBMC				25.1 µM
Cc1cccnc1[C@@H]1C[C@H](O)[C@@H](CO)O1	MT-4				>200 µg/mL
CCc1c(OC#CC2CC2)c2cc(F)ccc2[nH]c1=O	MT-4		RT-K103N		0.4 µM
COc1cccc2c1nc(-c1ccccc1F)n2CC1CCC1	MT-4			IIIB	0.0038 µg/mL
CCCc1c(Cc2ccc3ccccc3c2)n(COCc2ccccc2)c(=O)[nH]c1=O	CEM			LAV	>9.657 µM
CC(C)CN(C[C@@H](O)[C@H](Cc1ccccc1)NC(=O)[C@@H](NC(=O)CNC(C)(C)c1ccc(F)cc1)C(C)(C)C)S(=O)(=O)c1ccc(N)cc1	MT-2			RF	<1 µM
COCn1c(Cc2cccc3ccccc23)c(C)c(=O)[nH]c1=O	CEM			LAV	2.483 µM
CC(C)(C)c1ccccc1Sc1c(O)cc(-c2ccc(OCc3cccnc3)cc2)oc1=O	CEM			IIIB	>100 µM
CC(C)CN(C[C@@H](O)[C@H](Cc1ccccc1)NC(=O)[C@@H](NC(=O)CNC(C)(C)c1cc(F)cc(F)c1)C(C)(C)C)S(=O)(=O)c1ccc(N)cc1	MT-2			RF	<1 µM
Nc1ncnc2c1ncn2[C@H]1C[C@H]2OC[C@@H](O)[C@H]2O1	CEM + CEM-SS				>100 µM
CCCc1c(OCC2CCC2)c2cc(F)ccc2[nH]c1=O	MT-4				0.035 µM
CCCNc1nc(N)nc2c1ncn2[C@H]1C=C[C@@H](CO)C1	CEM				6 µM
CCOCn1c(Cc2cccc3ccccc23)c(CC)c(=O)[nH]c1=O	MT-4			LAV	0.041 µM
[N-]=[N+]=N[C@H]1[C@@H](F)[C@H](n2ccc(N)nc2=O)O[C@@H]1CO	MT-4			IIIB	>500 µM
O=C1Nc2ccc(Cl)cc2[C@@](C#CC2CC2)(C(F)(F)F)[C@H]1NCc1ccccc1	MT-2			RF	<0.218 µM
COC(=O)c1ccc(NC(=O)c2ccccc2Sc2ccc([N+](=O)[O-])cc2)c(OC)c1	MT-4			LAI	>50 µM
CC(=O)Oc1ccc(COP(=O)(OCc2ccc(OC(C)=O)cc2)OC[C@@H]2C=C[C@H](n3cc(C)c(=O)[nH]c3=O)O2)cc1	CEM				0.17 µM
CC(C)CN(C[C@@H](O)[C@H](Cc1ccccc1)NC(=O)[C@@H](NC(=O)CNC(C)(C)c1cccc(F)c1)C(C)(C)C)S(=O)(=O)c1ccc2cn[nH]c2c1	MT-2			RF	<1 µM
Fc1ccccc1C1SCc2nc3cc4ccccc4cc3n21	CEM + CEM-SS			RF	>200 µM
CCn1c(-c2ccccc2F)nc2c(OC)cccc21	MT-4			IIIB	2.55 µg/mL
Cc1ccnc(C2=C[C@H](O)[C@@H](CO)O2)c1	MT-4				12 µg/mL
COCCNC(=O)c1c(COC)nc(Nc2ccc(C#N)cc2)nc1Oc1c(C)cc(/C=C/C#N)cc1C	MT4 CMV-EGFP			L1001+K103N	0.0813 µM
COc1cccc2c1nc(-c1ccccc1F)n2Cc1cccc(F)c1	MT-4			IIIB	0.0048 µg/mL
OC[C@H]1OC(c2ccccn2)=C[C@@H]1O	MT-4				15 µg/mL
COCc1nc(Nc2ccc(C#N)cc2)nc(Oc2c(C)cc(/C=C/C#N)cc2C)c1C(=O)NCc1ccncc1	MT4 CMV-EGFP			L1001+K103N	0.0933 µM
COc1ccccc1NC(=O)c1ccccc1S(=O)(=O)c1ccc([N+](=O)[O-])cc1.C[N+](C)(C)CCO	H9			LAI	10 µM
CC(C)CN(C[C@@H](O)[C@H](Cc1ccccc1)NC(=O)[C@@H](NC(=O)CNC(C)(C)c1ccccc1)C(C)(C)C)S(=O)(=O)c1ccc2ncsc2c1	MT-2			RF	<1 µM
CCc1c(OC2CCCC2)c2cc(Cl)ccc2[nH]c1=O	MT-4		RT-Y181C	Nevirapine-resistant (RT Y181C)	1.22 µM
COc1cccc2c1nc(-c1ccccc1F)n2Cc1ccccc1	MT-4			IIIB	0.019 µg/mL
CCC(C)C#COc1c(C(C)C)c(=O)[nH]c2ccc(F)cc12	MT-4		RT-103N V108I	RT-K103N V108I	2 µM
Cc1nc2cc3nn2c(c1[C@H](OC(C)(C)C)C(=O)O)-c1ccc2c(c1Cl)N(C/C=C/CCCc1cccc(c1)-c1cccc-3c1)CCO2	MT-2	10% FBS		NL4-3	0.722 µM
COCc1nc(Nc2ccc(C#N)cc2)nc(Nc2c(C)cc(/C=C/C#N)cc2C)c1C(=O)NCc1ccccn1	MT4 CMV-EGFP			IIIB	0.00148 µM
O=C(Nc1ccccc1I)c1ccccc1Sc1ccc([N+](=O)[O-])cc1	MT-4			LAI	>50 µM
N#Cc1cccc(C2SCc3nc4cc5ccccc5cc4n32)c1	CEM + CEM-SS			RF	>200 µM
COc1cccc(C(C)(C)NCC(=O)N[C@H](C(=O)N[C@@H](Cc2ccccc2)[C@H](O)CN(CC(C)C)S(=O)(=O)c2ccc(N)cc2)C(C)(C)C)c1	MT-2			RF	<1 µM
Nc1ccn([C@H]2CC[C@@H](CO)O2)c(=O)n1	CEM + CEM-SS			IIIB	0.0693 µM
CC(C)CN(C[C@@H](O)[C@H](Cc1ccccc1)NC(=O)[C@@H](NC(=O)CNC(C)(C)c1ccccc1)C(C)(C)C)S(=O)(=O)c1ccc2nc(N)sc2c1	MT-2			RF	<1 µM
CCCc1c(Cc2cccc3ccccc23)n(COCCO)c(=O)[nH]c1=O	CEM			LAV	6.247 µM
CCCc1c(OC2CCCC2)c2cc(OC(F)(F)F)ccc2[nH]c1=O	MT-4				0.122 µM
COCc1nc(Nc2ccc(C#N)cc2)nc(Nc2c(C)cc(/C=C/C#N)cc2C)c1C(=O)NCCc1ccc(S(N)(=O)=O)cc1	MT4 CMV-EGFP			IIIB	0.0148 µM
CCCc1c(OC2CCCC2)c2cc(F)ccc2[nH]c1=O	MT-4				0.094 µM
Cc1cccnc1C1=C[C@H](O)[C@@H](CO)O1	MT-4				38 µg/mL
CC(C)CN(C[C@@H](O)[C@H](Cc1ccccc1)NC(=O)[C@@H](NC(=O)CNC(C)(C)c1cccc(F)c1)C(C)C)S(=O)(=O)c1ccc2ncsc2c1	MT-2			RF	<1 µM
CC[C@H](CC[C@@H](C)[C@H]1CC[C@H]2[C@@H]3CCC4=CC(=O)CC[C@]4(C)[C@H]3CC[C@]12C)C(C)C					3.48 µg/mL
Cc1cn([C@@H]2O[C@H](CO)C[C@@H]2F)c(=O)nc1N	MT-4			IIIB	>500 µM
COc1cccc2c1nc(-c1ccccc1F)n2Cc1ccccc1C(F)(F)F	MT-4			IIIB	0.48 µg/mL
CCCc1c(Cc2cccc3ccccc23)n(COCc2ccccc2)c(=O)[nH]c1=O	CEM			LAV	0.22 µM
CC(C)Cc1c(OC2CCCC2)c2cc(Cl)ccc2[nH]c1=O	MT-4		RT-Y181C	Nevirapine-resistant (RT Y181C)	0.93 µM
COc1ccc(/C=N/NC(=O)CN2c3c(-c4ccccc4)n[nH]c3-c3ccccc3S2(=O)=O)cc1	PBMC				42 µM
Nc1ccc(CO[C@H]2C(=O)Nc3ccc(Cl)cc3[C@@]2(C#CC2CC2)C(F)(F)F)cc1			RT-K103N		<1.082 µM
CCc1c(Cc2cccc3ccccc23)n(COCCO)c(=O)[nH]c1=O	MT-4			LAV	0.649 µM
O=c1oc(-c2ccc(OCc3ccccn3)cc2)cc(O)c1SCCc1ccccc1	H9			IIIB	2.3 µM
Cc1nc2cc3nn2c(c1[C@H](OC(C)(C)C)C(=O)O)-c1ccc2c(c1Cl)N(C/C=C\CCc1cccc(c1)-c1cccc-3c1)CCO2	MT-2	10% FBS		NL4-3	0.125 µM
O=S(=O)(O)c1c2ccccc2c(-c2c3nc(c(-c4c5ccccc5c(S(=O)(=O)O)c5ccccc45)c4ccc([nH]4)c(-c4c5ccccc5c(S(=O)(=O)O)c5ccccc45)c4nc(c(-c5c6ccccc6c(S(=O)(=O)O)c6ccccc56)c5ccc2[nH]5)C=C4)C=C3)c2ccccc12				89.6	<50 µg/mL
COCCNC(=O)c1c(COC)nc(Nc2ccc(C#N)cc2)nc1Nc1c(C)cc(/C=C/C#N)cc1C	MT4 CMV-EGFP			K103N + Y181C	0.0145 µM
CS(=O)(=O)c1ccc(CN2C[C@H](Cc3ccccc3)N(C[C@@H](O)C[C@@H](Cc3ccccc3)C(=O)N[C@H]3c4ccccc4C[C@H]3O)C2=O)cc1	MT-4 + MT4				2.2–10 µM
CC(C)c1c(OC#CC2CC2)c2cc(Cl)ccc2[nH]c1=O	MT-4		RT-103N Y181C		0.8 µM
Nc1ccccc1CO[C@H]1C(=O)Nc2ccc(Cl)cc2[C@@]1(C#CC1CC1)C(F)(F)F	MT-2			RF	<0.115 µM

5 of the rows above, restated:

compound | cells | conditions | changes | strain or isolate | result
CCc1c(OC2CCCC2)c2cc(Cl)ccc2[nH]c1=O | MT-4 |  | RT-Y181C | Nevirapine-resistant (RT Y181C) | 1.22 µM
COc1ccc(/C=N/NC(=O)CN2c3c(-c4ccccc4)n[nH]c3-c3ccccc3S2(=O)=O)cc1OC | PBMC |  |  |  | 46.6 µM
O=c1oc(-c2ccc(OCc3ccccn3)cc2)cc(O)c1SCCc1ccccc1 | H9 |  |  | IIIB | 2.3 µM
CCCc1c(Cc2cccc3ccccc23)n(COCCO)c(=O)[nH]c1=O | CEM |  |  | LAV | 6.247 µM
CS(=O)(=O)c1ccc(CN2C[C@H](Cc3ccccc3)N(C[C@@H](O)C[C@@H](Cc3ccccc3)C(=O)N[C@H]3c4ccccc4C[C@H]3O)C2=O)cc1 | MT-4 + MT4 |  |  |  | 2.2–10 µM

ECn is the concentration giving n% inhibition of infection, replication or growth. Two numbers with a dash give a range or band. Neighbouring rows are from separate reports.